Results of unrelated studies side by side (data: NIAID ChemDB).

Common to all: growth or infection tests; species: Candida albicans; read-out: inhibition

Conditions beyond the fields shown may differ between rows.

SMILES,strain,dose,value
COc1ccc(C(C(Cc2ccc(Cl)cc2Cl)c2ccc(Cl)cc2)n2cnnc2)cc1,28 strains,256 µg/mL,0%
O=S(c1ccccc1)c1c(Sc2ccccc2)c(O)c2ccccc2c1O,-,0.2 µg/mL,41.2%
CS(=O)(=O)OC[C@H]1CO[C@](Cn2ccnc2)(c2ccc(-c3ccccc3)cc2)O1,44 strains,256 µg/mL,42.1%
Cc1c(C(=O)O)c(-c2ccc(F)cc2)cn1-c1ccc(F)cc1,40 strains,41.67 µg/mL,2.5%
CC[C@@H](c1ccc(Cl)cc1)[C@@H](c1ccc(OC)cc1)n1cnnc1,28 strains,256 µg/mL,57%
Cc1c(C(=O)O)c(-c2ccc(F)cc2)cn1-c1ccc(Cl)cc1,40 strains,26.04 µg/mL,2.5%
O=C1C(Nc2ccc(Cl)cc2)=C(S(=O)c2ccccc2)C(=O)c2ccccc21,-,0.2 µg/mL,48%
NCCCC[C@H](NC(=O)[C@H](CCCN=C(N)N)NC(=O)[C@H](CCCN=C(N)N)NC(=O)[C@H](CCCCN)NC(=O)[C@H](CCCCN)NC(=O)[C@@H](N)CCCCN)C(=O)N[C@@H](CCCN=C(N)N)C(=O)O,ATCC 10231,200 µM,43%
CCCCCCn1c(-c2ccc([N+](=O)[O-])cc2)cc(C(=O)N(CCO)CCO)c1C,20 strains,200 µg/mL,0%
COc1ccc(C(=O)C(Cc2ccc(Cl)cc2Cl)c2ccc(OC)cc2)cc1,28 strains,256 µg/mL,0%
O=S(=O)(Nc1ncccn1)c1ccc(N=Cc2c[nH]c3ccccc23)cc1,-,200 µg/mL,35%
Cc1c(C(=O)O)c(-c2ccc(Br)cc2)cn1-c1ccc(Br)cc1,40 strains,12.29 µg/mL,2.5%
COc1ccc(NC2=C(S(=O)c3ccccc3)C(=O)c3ccccc3C2=O)cc1,-,0.2 µg/mL,44.5%
Cc1noc(NS(=O)(=O)c2ccc(N=Cc3c[nH]c4ccccc34)cc2)c1C,-,200 µg/mL,45%
O=[N+]([O-])c1c(Cl)cccc1-c1c[nH]cc1Cl,40 strains,47.92 µg/mL,5%
CCC(c1ccc(OC)cc1)C(c1ccc(OC)cc1)n1cncn1,28 strains,256 µg/mL,18%
Cc1c(C(=O)N2CCN(C)CC2)cc(-c2ccc([N+](=O)[O-])cc2)n1C,20 strains,200 µg/mL,0%
O=C1C(Nc2ccc([N+](=O)[O-])cc2)=C(S(=O)c2ccccc2)C(=O)c2ccccc21,-,0.2 µg/mL,39.2%
CCCCCCn1c(-c2ccc([N+](=O)[O-])cc2)cc(C(=O)N2CCN(C)CC2)c1C,20 strains,200 µg/mL,0%
CCC(c1ccc(Cl)cc1)C(c1ccc(OC)cc1)n1ccnc1,28 strains,256 µg/mL,100%
CS(=O)(=O)c1ccc(NC(=O)Oc2c(Cl)c(Cl)c(Cl)c(Cl)c2Cl)cc1,-,25 µg/mL,inactive
O=C(OC[C@H]1CO[C@](Cn2ccnc2)(c2ccc(-c3ccccc3)cc2)O1)c1ccccc1,44 strains,256 µg/mL,87.1%
Cc1c(C(=O)O)c(-c2ccc(Br)cc2)cn1-c1ccc(F)cc1,40 strains,78.57 µg/mL,2.5%
CC(=O)N1CCN(c2ccc(OC[C@H]3CO[C@](Cn4ccnc4)(c4ccc(-c5ccccc5)cc4)O3)cc2)CC1,44 strains,256 µg/mL,46%
Cc1cc(C)nc(NS(=O)(=O)c2ccc(N=Cc3c[nH]c4ccccc34)cc2)n1,-,200 µg/mL,60%
O=S(c1ccccc1)c1c(Sc2ccc(Br)cc2)c(O)c2ccccc2c1O,-,0.2 µg/mL,39.6%
Cc1c(C(=O)O)c(-c2ccc(Br)cc2)cn1-c1ccc(Cl)cc1,40 strains,17.32 µg/mL,2.5%
Cc1cc(NS(=O)(=O)c2ccc(N=Cc3c[nH]c4ccccc34)cc2)no1,-,200 µg/mL,25%

Repeating the final 2 entries:

SMILES	strain	dose	value
Cc1c(C(=O)O)c(-c2ccc(Br)cc2)cn1-c1ccc(Cl)cc1	40 strains	17.32 µg/mL	2.5%
Cc1cc(NS(=O)(=O)c2ccc(N=Cc3c[nH]c4ccccc34)cc2)no1	-	200 µg/mL	25%

For "inactive" no cut-off is given. An empty or dashed field is not shown. Inhibition is in % at the dose shown (toxicity tests: loss of growth or viability).